Results taken from PubChem BioAssay AID720596 (The Scripps Research Institute Molecular Screening Center, 2013).
The entries are a selection whose mix differs from that of the whole data set. Active and inactive are the calls of the source. Cut-off read from the data, not from the text of the source: active = inhibition above about 24%; inactive = the rest.

Molecular target: Major prion protein (Homo sapiens) (UniProt P04156)
Assay: reduces human prion protein on the cell surface, primary screen, cell-based, TR-FRET (AID 720596); note: 0% = median of the test wells and 100% = reference compound wells
Conditions: cell surface PrPC, TR-FRET read-out; at 13.8 µM; stronger effect = higher value

How did the inhibition turn out when `[N-]=[N+]=NC1CCCCC1NC(=O)c1cc([N+](=O)[O-])cc([N+](=O)[O-])c1` (stereo not given) was run?
The inhibition was inactive: -58.4%.

With `Cc1ccc(OP(=O)(Nc2ccc([N+](=O)[O-])cn2)Oc2ccc(C)cc2)cc1` as the compound, how does the inhibition read?
The inhibition was inactive: -0.01%.

How did the inhibition turn out when `Cc1ccc2nc3c(c(C)c2c1)CC(C(Cl)Cl)S3` (stereo not given) was run?
Its inhibition is active: 30.1%.

How did the inhibition turn out when `O=[As](O)(c1ccc(O)cc1)c1ccccc1O` was run?
Its inhibition is inactive: 3.87%.

How did the inhibition turn out when `C[As](=O)(O)c1cccc(C(=O)O)c1` was run?
Its inhibition is inactive: -0.53%.

`O=[N+]([O-])c1ccc(-c2cc([N+](=O)[O-])c(O)c([N+](=O)[O-])c2)cc1` was tested. Which inhibition did it give?
The inhibition was inactive: -7.15%.

For `COc1cc(C(=O)NCC2(N3CCOCC3)CCCCC2)ccc1OCC(C)C`, which inhibition is on record?
The inhibition was inactive: 3.01%.

With `CC(C)NC(=O)NP(=O)(Oc1ccccc1)Oc1ccccc1` as the compound, how does the inhibition read?
The inhibition was inactive: 8.67%.

How did the inhibition turn out when `CCN(CC)C(=S)SC(NC=O)C(Cl)(Cl)Cl` (stereo not given) was run?
The inhibition was inactive: -1.8%.

Which inhibition does the source give for `O=C(OC1CN2CCC1CC2)c1cccc2[nH]cnc12` (stereo not given) here?
The inhibition was inactive: -4.31%.

How did the inhibition turn out when `ClCCSc1nnc(-c2cccnc2)o1` was run?
The inhibition was inactive: 2.86%.

Which inhibition does the source give for `COC(=O)C1(C)COP(=O)(N2CCCCCC2)OC1` (stereo not given) here?
The inhibition was inactive: -1.51%.

How did the inhibition turn out when `CC(C)c1ccc(OP(=O)(Nc2ccccn2)Oc2ccccc2F)cc1` (stereo not given) was run?
Its inhibition is inactive: -9.46%.

Which inhibition does the source give for `O=P1(N(CCCl)CCCl)Nc2ccccc2N1` here?
Its inhibition is inactive: -8.02%.

With `O=P1(N(CCCl)CCCl)OCCCN1CCCl` (stereo not given) as the compound, how does the inhibition read?
Its inhibition is inactive: 4.42%.

Which inhibition does the source give for `COc1ccc2nc(NP(=O)(c3ccccc3)c3ccccc3)sc2c1` here?
Its inhibition is inactive: 5.41%.

`COc1cc(I)ccc1[As](=O)(O)O` was tested. Which inhibition did it give?
Its inhibition is inactive: 10.9%.

`Cc1c2c(nc3ccccc13)SC(C(Cl)Cl)C2` (stereo not given) was tested. Which inhibition did it give?
The inhibition was active: 39%.

For `O=C(OC1CN2CCC1CC2)C12CC3CC(CC(C3)C1)C2` (stereo not given), which inhibition is on record?
The inhibition was inactive: 5%.

With `Cc1cc(=O)[nH]c(N[N+](=O)[O-])n1` as the compound, how does the inhibition read?
The inhibition was inactive: -4.15%.

With `O=[N+]([O-])c1cc(Oc2ccc([N+](=O)[O-])cc2C(F)(F)F)cc([N+](=O)[O-])c1` as the compound, how does the inhibition read?
Its inhibition is inactive: -31.6%.

`COc1ccc(N/C(=N/P(=O)(N2CCOCC2)N2CCOCC2)N2CCOCC2)cc1` was tested. Which inhibition did it give?
The inhibition was inactive: -0.22%.

With `O=C(O)C(=O)c1ccc(N(CCCl)CCCl)cc1` as the compound, how does the inhibition read?
Its inhibition is inactive: 5.77%.

For `O=C(COc1ccccc1)OC1CN2CCC1CC2` (stereo not given), which inhibition is on record?
Its inhibition is inactive: -2.03%.

Which inhibition does the source give for `O=C(Nc1ccncc1[N+](=O)[O-])c1ccc([N+](=O)[O-])cc1[N+](=O)[O-]` here?
Its inhibition is inactive: -48.2%.

For `COP1(=S)c2c(C)nn(CCC#N)c2N=C(c2ccc(F)cc2)N1C` (stereo not given), which inhibition is on record?
The inhibition was inactive: 0.1%.

`COC(=O)C1(C)COP(=O)(N2CCCC2)OC1` (stereo not given) was tested. Which inhibition did it give?
The inhibition was inactive: 1.67%.

`CCC(C)N(CC(C)C)C(=S)SC(NC(C)=O)C(Cl)(Cl)Cl` (stereo not given) was tested. Which inhibition did it give?
The inhibition was inactive: -4.77%.

For `O=C(OC1CN2CCC1CC2)c1cccc([N+](=O)[O-])c1` (stereo not given), which inhibition is on record?
Its inhibition is inactive: -11.3%.

With `CCOC(=O)c1ccc(NC(=O)C(C)(CCl)SC)cc1` (stereo not given) as the compound, how does the inhibition read?
The inhibition was inactive: 6.09%.

For `COP(=O)(OC)N1CC1c1ccccc1` (stereo not given), which inhibition is on record?
The inhibition was inactive: 4.45%.

How did the inhibition turn out when `CCCCOc1ccc(C(=O)NCC2(N3CCCCC3)CCCCC2)cc1OC` was run?
The inhibition was inactive: 1.46%.

`Cc1cc(SC(NC(=O)c2ccccc2)C(Cl)(Cl)Cl)nc(C(C)C)n1` (stereo not given) was tested. Which inhibition did it give?
Its inhibition is inactive: 3.08%.

`CCOC(=O)Nc1ccc([As](=O)(O)O)c(O)c1` was tested. Which inhibition did it give?
Its inhibition is inactive: -2.69%.

With `O=C(O)C(O)c1ccc(N(CCCl)CCCl)cc1` (stereo not given) as the compound, how does the inhibition read?
Its inhibition is inactive: 2.65%.

For `CC1CCNP(=O)(N(CCCl)CCCl)O1` (stereo not given), which inhibition is on record?
The inhibition was inactive: 1.59%.

How did the inhibition turn out when `O=P(Nc1ccccn1)(c1cccc2ccccc12)c1cccc2ccccc12` was run?
The inhibition was inactive: -0.24%.

For `Cc1cc(SC(NC=O)C(Cl)(Cl)Cl)ncn1` (stereo not given), which inhibition is on record?
The inhibition was inactive: -6.01%.

With `O=[N+]([O-])c1ccc(Nc2ccc(Oc3ccc([N+](=O)[O-])cc3[N+](=O)[O-])cc2)c([N+](=O)[O-])c1` as the compound, how does the inhibition read?
Its inhibition is inactive: -1.23%.

Which inhibition does the source give for `CCOC(=O)Nc1cccc([As](=O)(O)O)c1` here?
The inhibition was inactive: 2.13%.

With `CN(C)C1(CNC(=O)c2ccc(S(C)(=O)=O)cc2)CCCCC1` as the compound, how does the inhibition read?
The inhibition was inactive: 4.91%.

How did the inhibition turn out when `O=C(/C=C/c1ccccc1)OC1CN2CCC1CC2` (stereo not given) was run?
Its inhibition is inactive: 2.15%.

How did the inhibition turn out when `CCCC1OP(=O)(Nc2ccccc2)OCC1CC` (stereo not given) was run?
Its inhibition is inactive: -4.61%.

`Cc1nn(-c2ccccc2)c2c1P(=O)(N1CCOCC1)N(C)C(c1ccccc1)=N2` (stereo not given) was tested. Which inhibition did it give?
The inhibition was inactive: 2.91%.

How did the inhibition turn out when `CC1CCC(C(C)C)C(OP(=O)(Nc2ccccn2)c2ccccc2)C1` (stereo not given) was run?
The inhibition was inactive: -4.16%.

How did the inhibition turn out when `Cc1ccc(C(=O)OC2CN3CCC2CC3)cc1` (stereo not given) was run?
The inhibition was inactive: -1.45%.

With `Nc1cccc([As](=O)(O)c2ccccc2)c1` as the compound, how does the inhibition read?
Its inhibition is inactive: 0.61%.

How did the inhibition turn out when `Cc1ccc(OCC(=O)OC2CN3CCC2CC3)cc1` (stereo not given) was run?
Its inhibition is inactive: -5.84%.

`O=[As](O)(c1cccs1)c1cccs1` was tested. Which inhibition did it give?
The inhibition was inactive: -2.61%.

For `O=P1(Nc2ccc(Br)cn2)COc2ccccc2OC1`, which inhibition is on record?
Its inhibition is inactive: 3.57%.

With `NS(=O)(=O)c1cccc(NC(=O)COC(=O)C(O)(c2ccccc2)c2ccccc2)c1` as the compound, how does the inhibition read?
Its inhibition is inactive: 6.82%.

`Cc1ccc(S(=O)(=O)N(CCCN)CCCc2c(C)nc(N)[nH]c2=O)cc1` was tested. Which inhibition did it give?
Its inhibition is inactive: -18.9%.

With `O=P1(Nc2ncccn2)COc2ccccc2OC1` as the compound, how does the inhibition read?
Its inhibition is inactive: -4.53%.

`O=P1(N(CCCl)CCCl)NCCC(C(F)(F)F)O1` (stereo not given) was tested. Which inhibition did it give?
Its inhibition is inactive: -8.95%.

`Clc1n[nH]nc1-c1nn[nH][15n]1` was tested. Which inhibition did it give?
Its inhibition is inactive: -1.15%.

For `CC(C)(C)C(=O)NC(Sc1ncccn1)C(Cl)(Cl)Cl` (stereo not given), which inhibition is on record?
The inhibition was inactive: 8.28%.

Which inhibition does the source give for `O=P1(Nc2ccccn2)COc2ccccc2OC1` here?
Its inhibition is inactive: 8.91%.

`CCC1=CC2Cc3nc4ccc(Cl)cc4c(N)c3C(C1)C2` (stereo not given) was tested. Which inhibition did it give?
The inhibition was inactive: -3.91%.

With `CCOP(=O)(NC(=NC(C)c1ccccc1)NC(C)c1ccccc1)OCC` (stereo not given) as the compound, how does the inhibition read?
Its inhibition is inactive: 5.06%.

For `CCOP(=O)(Nc1ccc(C)cn1)OCC`, which inhibition is on record?
The inhibition was inactive: -6.68%.

`CN(CCCl)Cc1cc(Cl)c(NC2=NCCN2)c(Cl)c1` was tested. Which inhibition did it give?
Its inhibition is inactive: -5.5%.

With `CC(C)/C=N\N=C(\N)N[N+](=O)[O-]` as the compound, how does the inhibition read?
Its inhibition is inactive: -7.58%.

With `CN(C(=O)Cc1ccc(Cl)c(Cl)c1)[C@@H]1CCCC[C@H]1N1CCCC1` as the compound, how does the inhibition read?
The inhibition was inactive: -6.57%.

Which inhibition does the source give for `CN(C(=O)Cc1ccc(Cl)c(Cl)c1)C1CCCC[C@@H]1N1CCCC1` (stereo not given in full) here?
The inhibition was inactive: 5.12%.

How did the inhibition turn out when `CC1(CBr)Cn2c(nc3ccccc3c2=O)S1` (stereo not given) was run?
Its inhibition is inactive: 0.32%.
